Mtb cholesterol medium: 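Phenotypic screen: M. tuberculosis growth, cholesterol and DPPC medium, 4 days; the read-out is not stated. Tested at 50 µM. Direction is inferred from retests: higher values go with more growth inhibition. Size under these conditions: about 69,000 compounds, about 370 of them at 50% or above in at least one test.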
Mtb glucose medium: 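Phenotypic screen: M. tuberculosis growth, glucose 7H9 medium, 3 days; the read-out is not stated. Concentration: 50 µM. Direction is inferred from retests: higher values go with more growth inhibition. About 69,000 compounds were tested under these conditions; 1.1% (about 760) showed 50% or more at least once.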

Each number is a percent effect as filed.
The controls that fix the scale are not given in the record; negative values are as filed.
The entries come from a sample that favours strong results.
Two or more numbers in one place are separate tests of the same structure; such repeats can differ widely.

For CSCC(CCO)Nc1cccc(C(F)(F)F)n1 (stereo not given) the result was Mtb glucose medium: 23.42%.
For Cc1nc(CNC(=O)NC(C)c2ccc3c(c2)OCCO3)cs1 (stereo not given) the result was Mtb glucose medium: -20.48%.
For O=C(O)C(=O)O.c1cncc(-c2noc(C3CN(Cc4cccs4)C3)n2)c1 the result was Mtb glucose medium: 19.42% and 20.97%.
For FC(F)(F)c1cccc(CN2CCOC[C@H](Oc3cccnc3)C2)c1 the result was Mtb glucose medium: 8.173% and -1.962%.
For CCN(CC)CCn1c(NC(=O)c2scnc2C)nc2ccccc21 the result was Mtb glucose medium: 9.543%.
For Cc1[nH]c2ccc(CNc3cc(C(N)=O)ccn3)cc2c1C the result was Mtb cholesterol medium: 20.03%; Mtb glucose medium: 12.22%.
For COc1cccc(CNc2nc(C)cc(C)n2)c1OC the result was Mtb cholesterol medium: -21.55%; Mtb glucose medium: -3.254%.
For COc1c(C)cnc(CSc2nnc(N3CCCC3)s2)c1C the result was Mtb cholesterol medium: -11.99% and -8.867%.
For CCN1CCC(CNCc2cc(C)ccc2OC)C1 (stereo not given) the result was Mtb cholesterol medium: -8.684%.
For Cn1c(-c2ccccc2Cl)nc2cc(C(=O)NC(CO)CO)cnc21 the result was Mtb glucose medium: 2.172% and 65.01%.
For CO[C@@H]1CCN(C(=O)c2cc(C)on2)C[C@@H]1Cc1ccccc1 the result was Mtb glucose medium: 24.91%.
For FC(F)(F)c1ccc2nc([C@H]3CCN(C4CCCCC4)C3)[nH]c2c1 the result was Mtb cholesterol medium: 54.09%; Mtb glucose medium: 64.45% and 35.57%.
For CN(C)CC1(O)CCN(S(=O)(=O)c2ccc(Cl)cc2)C1 (stereo not given) the result was Mtb glucose medium: -4.569%.
For CS(=O)(=O)NCC1CCCN(c2ccc(C(F)(F)F)cn2)C1 (stereo not given) the result was Mtb cholesterol medium: -23.85%; Mtb glucose medium: 22.77%.
For CCc1cnc(N)nc1N[C@@H](C)c1ncccc1C the result was Mtb cholesterol medium: -13.15%; Mtb glucose medium: -8.579%.
For CCCn1c(N2CCCC2)nc2c(C)nn(C)c2c1=O the result was Mtb glucose medium: -0.1332%.
For Cc1ccoc1C(=O)N1CCC(n2cc(-c3ccsc3)nn2)CC1 the result was Mtb cholesterol medium: 69.42%.
For CSC(C)C(=O)Nc1ccnn1-c1ccccc1C (stereo not given) the result was Mtb cholesterol medium: -15.41%; Mtb glucose medium: 0.2992% and -16.88%.
For CC(C)(C)c1n[nH]cc1CNC1CCC(O)CC1 (stereo not given) the result was Mtb cholesterol medium: 5.476%; Mtb glucose medium: 7.338%.
For COC1CCCN(C2CCN(c3cccc(-c4csc(C)n4)c3)CC2)C1 (stereo not given) the result was Mtb glucose medium: 26.82%.
For CCCc1nc(N2CCN(CC)CC2)c2c(n1)c(C)nn2CC the result was Mtb glucose medium: -23.47%.
For CC1(c2ccccc2)CCCN(Cc2cncn2C2CCCC2)C1 (stereo not given) the result was Mtb cholesterol medium: 86.27%; Mtb glucose medium: 70.77%.
For Cc1ccc(NC(=O)c2ncc(C(N)=O)cc2Cl)cc1F the result was Mtb glucose medium: 78.71%.
For CCC(C)(C)NC(=O)c1nnn(-c2cccc3c2CCN(C)C3)c1C the result was Mtb cholesterol medium: 0.7076% and 5.085%; Mtb glucose medium: 9.658%.
For CCc1nnc2n1CCN(C(=O)CN(C)C1CC1)C2 the result was Mtb glucose medium: -29.05%.
For CC(O)CNc1nc(-c2cccnc2)nc2c1CCC2 (stereo not given) the result was Mtb cholesterol medium: 18.91%; Mtb glucose medium: -13.39%.
For COCCC1(CNC(=O)Nc2ccc(-n3cccn3)cc2)CCC1 the result was Mtb glucose medium: 46.95%.
For CN(C)c1cc(C(=O)N2CCN(c3cc(C#N)ccn3)CC2)ccn1 the result was Mtb cholesterol medium: 0.6828%; Mtb glucose medium: -1.85%.
For OC1(CN2CCN(c3cccc(C(F)(F)F)c3)CC2)CNCCOC1 (stereo not given) the result was Mtb cholesterol medium: 30.09%.
For O=C1NCC2(CCCN(C(=O)c3c[nH]nc3C3CCCCC3)C2)O1 (stereo not given) the result was Mtb glucose medium: -1.567% and -6.275%.
For Cc1csc(N2CCCN(C(=O)CCN3CCCC3=O)CC2)n1 the result was Mtb glucose medium: -5.403%.
For COc1ccnc(CN2CCCC(CCc3ccc(F)cc3)C2)c1OC (stereo not given) the result was Mtb glucose medium: 67.17% and 55.65%.
For O=C(O)C(F)(F)F.[H][C@@]12OCCN(C(=O)COc3ccccc3)[C@@]1([H])CC[C@H]2OCCN(C)C the result was Mtb glucose medium: -27.88%.
For Cc1noc(COCC(=O)Nc2ccc(Br)c(C)n2)n1 the result was Mtb glucose medium: 41.42%.
For O=C(NCCn1ccnc1)c1ccn(-c2ccc(F)cc2)n1 the result was Mtb cholesterol medium: -9.786%; Mtb glucose medium: -7.337%.
For Cc1cccc(NCc2ncc(C(C)(C)C)o2)c1 the result was Mtb glucose medium: 28.57% and 33.2%.
For CC[C@@]1(O)CCN(c2ncc(Cl)cc2F)C[C@H]1O the result was Mtb cholesterol medium: 8.313%; Mtb glucose medium: 13.39%.
For FC(F)(F)c1ccccc1CN1CCOC[C@H](Oc2cccnc2)C1 the result was Mtb glucose medium: 89.33% and 5.037%.
For O=C(c1ccc(N2CCCC2)nn1)N1CCCC(n2cccn2)C1 (stereo not given) the result was Mtb glucose medium: 6.312%.
For c1ccc(Oc2ccc(OC34CCCN(CC3)C4)cc2)cc1 (stereo not given) the result was Mtb cholesterol medium: 58.08%; Mtb glucose medium: 75.14% and 70.84%.
For Cc1nc(CN2CCCC(N(C)CCc3cccs3)C2)no1 (stereo not given) the result was Mtb cholesterol medium: -23.83%.
For CC(NC1(CNC(=O)Cn2cccn2)CCOCC1)c1ccccc1 (stereo not given) the result was Mtb glucose medium: 19.77%.
For O=C(NCCNc1ccc(C(F)(F)F)cn1)c1cc(Cl)ccc1F the result was Mtb cholesterol medium: 33.61%.
For CCc1ccc2nc(NCC(O)CO)cc(C)c2c1 (stereo not given) the result was Mtb glucose medium: -6.595%.
For Cc1cc(C)c2c(N(C)CC3CCN(CC(C)C)C3)ncnc2n1 (stereo not given) the result was Mtb cholesterol medium: 5.375%.
For CCOC(=O)c1cc(C(C)(O)CCC=C(C)C)on1 (stereo not given) the result was Mtb cholesterol medium: 115.2%; Mtb glucose medium: 88.78% and 108.4%.

5 of the entries, repeated:

{"compound": "Cc1nc(CN2CCCC(N(C)CCc3cccs3)C2)no1", "stereo": "stereo not given", "Mtb cholesterol medium": -23.83}
{"compound": "CO[C@@H]1CCN(C(=O)c2cc(C)on2)C[C@@H]1Cc1ccccc1", "Mtb glucose medium": 24.91}
{"compound": "CCc1nnc2n1CCN(C(=O)CN(C)C1CC1)C2", "Mtb glucose medium": -29.05}
{"compound": "FC(F)(F)c1cccc(CN2CCOC[C@H](Oc3cccnc3)C2)c1", "Mtb glucose medium": "8.173 and -1.962"}
{"compound": "FC(F)(F)c1ccc2nc([C@H]3CCN(C4CCCCC4)C3)[nH]c2c1", "Mtb cholesterol medium": 54.09, "Mtb glucose medium": "64.45 and 35.57"}

Data taken from ChEMBL document CHEMBL3988442, “University of Dundee, Small-Polar-MMV Screening Library” (2021).